Measured values taken from patent publication US20070099199A1.

Key:
[1] = target: HPV E6 #16 PDZ ligand peptide (C-terminal peptide of the E6 protein of HPV 16) (HPV 16); assay: G assay ELISA, immobilised GST-PDZ, biotin peptide 10 uM
[2] = target: HPV16 E6 C-terminal PDZ ligand (PL) peptide, biotinylated (human papillomavirus type 16); assay: G assay ELISA; immobilised GST-PDZ, biotin-peptide 10 uM

B1: GST-ZO-2 PDZ domain 1 (protein)
chain: MSPILGYWKIKGLVQPTRLLLEYLEEKYEEHLYERDEGDKWRNKKFELGLEFPNLPYYIDGDVKLTQSMAIIRYIADKHNMLGGCPKERAEISMLEGAVLDIRYGVSRIAYSKDFETLKVDFLSKLPEMLKMFEDRLCHKTYLNGDHVTHPDFMLYDALDVVLYMDPMCLDAFPKLVCFKKRIEAIPQIDKYLKSSKYIAWPLQGWQATFGGGDHPPKSDLIEGRLIWEQYTVTLQKDSKRGFGIAVSGGRDNPHFENGETSIVISDVLPGGPADGLLQENDRVVMVNGTPMEDVLHSFAVQQLRKSGKVAAIVVKRPRKV
Ave OD [1]: 0.622 A450 nm | OD S/N (ratio to GST-only well) [1]: 2.56 | Ave OD [2]: 0.342 A450 nm | OD S/N (ratio vs GST only) [2]: 2.11

B2: GST-KIAA0147 PDZ domain 4 (protein)
chain: MSPILGYWKIKGLVQPTRLLLEYLEEKYEEHLYERDEGDKWRNKKFELGLEFPNLPYYIDGDVKLTQSMAIIRYIADKHNMLGGCPKERAEISMLEGAVLDIRYGVSRIAYSKDFETLKVDFLSKLPEMLKMFEDRLCHKTYLNGDHVTHPDFMLYDALDVVLYMDPMCLDAFPKLVCFKKRIEAIPQIDKYLKSSKYIAWPLQGWQATFGGGDHPPKSDLIEGRRELCIQKAPGERLGISIRGGARGHAGNPRDPTDEGIFISKVSPTGAAGRDGRLRVGLRLLEVNQQSLLGLTHGEAVQLLRSVGDTLTVLVCDGFEASTDAALEVS
Ave OD [1]: 0.464 A450 nm | OD S/N (ratio to GST-only well) [1]: 2.17 | Ave OD [2]: 0.38 A450 nm | OD S/N (ratio vs GST only) [2]: 2.34

B3: GST-SSTRIP PDZ domain 1 (protein)
chain: MSPILGYWKIKGLVQPTRLLLEYLEEKYEEHLYERDEGDKWRNKKFELGLEFPNLPYYIDGDVKLTQSMAIIRYIADKHNMLGGCPKERAEISMLEGAVLDIRYGVSRIAYSKDFETLKVDFLSKLPEMLKMFEDRLCHKTYLNGDHVTHPDFMLYDALDVVLYMDPMCLDAFPKLVCFKKRIEAIPQIDKYLKSSKYIAWPLQGWQATFGGGDHPPKSDLIEGRLKEKTVLLQKKDSEGFGFVLRGAKAQTPIEEFTPTPAFPALQYLESVDEGGVAWRAGLRMGDFLIEVNGQNVVKVGHRQVVNMIRQGGNTLMVKVVMVTRHPDMDEAVQ
OD S/N (ratio to GST-only well) [1]: 3.28

B4: GST-RGS12 PDZ domain 1 (protein)
chain: MSPILGYWKIKGLVQPTRLLLEYLEEKYEEHLYERDEGDKWRNKKFELGLEFPNLPYYIDGDVKLTQSMAIIRYIADKHNMLGGCPKERAEISMLEGAVLDIRYGVSRIAYSKDFETLKVDFLSKLPEMLKMFEDRLCHKTYLNGDHVTHPDFMLYDALDVVLYMDPMCLDAFPKLVCFKKRIEAIPQIDKYLKSSKYIAWPLQGWQATFGGGDHPPKSDLIEGRRPSPPRVRSVEVARGRAGYGFTLSGQAPCVLSCVMRGSPADFVGLRAGDQILAVNEINVKKASHEDVVKLIGKCSGVLHMVIAEGVGRFESCS
OD S/N (ratio to GST-only well) [1]: 4.64 | Ave OD [2]: 0.429 A450 nm | OD S/N (ratio vs GST only) [2]: 3.96

B5: GST-ZO-1 PDZ domain 1 (protein)
chain: MSPILGYWKIKGLVQPTRLLLEYLEEKYEEHLYERDEGDKWRNKKFELGLEFPNLPYYIDGDVKLTQSMAIIRYIADKHNMLGGCPKERAEISMLEGAVLDIRYGVSRIAYSKDFETLKVDFLSKLPEMLKMFEDRLCHKTYLNGDHVTHPDFMLYDALDVVLYMDPMCLDAFPKLVCFKKRIEAIPQIDKYLKSSKYIAWPLQGWQATFGGGDHPPKSDLIEGRIWEQHTVTLHRAPGFGFGIAISGGRDNPHFQSGETSIVISDVLKGGPAEGQLQENDRVAMVNGVSMDNVEHAFAVQQLRKSGKNAKITIRRKKKVQIPNSS
Ave OD [1]: 0.521 A450 nm | OD S/N (ratio to GST-only well) [1]: 2.83 | Ave OD [2]: 0.412 A450 nm | OD S/N (ratio vs GST only) [2]: 1.83

B6: GST-Syntrophin gamma 1 PDZ domain 1 (protein)
chain: MSPILGYWKIKGLVQPTRLLLEYLEEKYEEHLYERDEGDKWRNKKFELGLEFPNLPYYIDGDVKLTQSMAIIRYIADKHNMLGGCPKERAEISMLEGAVLDIRYGVSRIAYSKDFETLKVDFLSKLPEMLKMFEDRLCHKTYLNGDHVTHPDFMLYDALDVVLYMDPMCLDAFPKLVCFKKRIEAIPQIDKYLKSSKYIAWPLQGWQATFGGGDHPPKSDLIEGREPFYSGERTVTIRRQTVGGFGLSIKGGAEHNIPVVVSKISKEQRAELSGLLFIGDAILQINGINVRKCRHEEVVQVLRNAGEEVTLTVSFLKRAPAFLKLP
OD S/N (ratio to GST-only well) [1]: 3.08 | Ave OD [2]: 0.358 A450 nm | OD S/N (ratio vs GST only) [2]: 2

B7: GST-HEMBA 1003117 #226.2 PDZ domain 1 (protein)
chain: MSPILGYWKIKGLVQPTRLLLEYLEEKYEEHLYERDEGDKWRNKKFELGLEFPNLPYYIDGDVKLTQSMAIIRYIADKHNMLGGCPKERAEISMLEGAVLDIRYGVSRIAYSKDFETLKVDFLSKLPEMLKMFEDRLCHKTYLNGDHVTHPDFMLYDALDVVLYMDPMCLDAFPKLVCFKKRIEAIPQIDKYLKSSKYIAWPLQGWQATFGGGDHPPKSDLIEGREDFCYVFTVELERGPSGLGMGLIDGMHTHLGAPGLYIQTLLPGSPAAADGRLSLGDRILEVNGSSLLGLGYLRAVDLIRHGGKKMRFLVAKSDVETAKKI
Ave OD [1]: 0.477 A450 nm | OD S/N (ratio to GST-only well) [1]: 2.27

B8: GST-FLJ11215 PDZ domain 1 (protein)
chain: MSPILGYWKIKGLVQPTRLLLEYLEEKYEEHLYERDEGDKWRNKKFELGLEFPNLPYYIDGDVKLTQSMAIIRYIADKHNMLGGCPKERAEISMLEGAVLDIRYGVSRIAYSKDFETLKVDFLSKLPEMLKMFEDRLCHKTYLNGDHVTHPDFMLYDALDVVLYMDPMCLDAFPKLVCFKKRIEAIPQIDKYLKSSKYIAWPLQGWQATFGGGDHPPKSDLIEGREGHSHPRVVELPKTEEGLGFNIMGGKEQNSPIYISRIIPGGIADRHGGLKRGDQLLSVNGVSVEGEHHEKAVELLKAAQGKVKLVVRYTPKVLEEME
OD S/N (ratio to GST-only well) [1]: 2.74 | Ave OD [2]: 0.449 A450 nm | OD S/N (ratio vs GST only) [2]: 2.77

B9: GST-Shank 1 PDZ domain 1 (protein)
chain: MSPILGYWKIKGLVQPTRLLLEYLEEKYEEHLYERDEGDKWRNKKFELGLEFPNLPYYIDGDVKLTQSMAIIRYIADKHNMLGGCPKERAEISMLEGAVLDIRYGVSRIAYSKDFETLKVDFLSKLPEMLKMFEDRLCHKTYLNGDHVTHPDFMLYDALDVVLYMDPMCLDAFPKLVCFKKRIEAIPQIDKYLKSSKYIAWPLQGWQATFGGGDHPPKSDLIEGREEKTVVLQKKDNEGFGFVLRGAKADTPIEEFTPTPAFPALQYLESVDEGGVAWQAGLRTGDFLIEVNNENVVKVGHRQVVNMIRQGGNHLVLKVVTVTRNLDPDDTARKKA
OD S/N (ratio to GST-only well) [1]: 2.53 | Ave OD [2]: 0.385 A450 nm | OD S/N (ratio vs GST only) [2]: 1.71

B10: GST-KIAA0316 PDZ domain 1 (protein)
chain: MSPILGYWKIKGLVQPTRLLLEYLEEKYEEHLYERDEGDKWRNKKFELGLEFPNLPYYIDGDVKLTQSMAIIRYIADKHNMLGGCPKERAEISMLEGAVLDIRYGVSRIAYSKDFETLKVDFLSKLPEMLKMFEDRLCHKTYLNGDHVTHPDFMLYDALDVVLYMDPMCLDAFPKLVCFKKRIEAIPQIDKYLKSSKYIAWPLQGWQATFGGGDHPPKSDLIEGRIPPAPRKVEMRRDPVLGFGFVAGSEKPVVVRSVTPGGPSEGKLIPGDQIVMINDEPVSAAPRERVIDLVRSCKESILLTVIQPYPSPK
OD S/N (ratio to GST-only well) [1]: 2.56 | Ave OD [2]: 0.343 A450 nm | OD S/N (ratio vs GST only) [2]: 2.34

B11: GST-KIAA1284 PDZ domain 1 (protein)
chain: MSPILGYWKIKGLVQPTRLLLEYLEEKYEEHLYERDEGDKWRNKKFELGLEFPNLPYYIDGDVKLTQSMAIIRYIADKHNMLGGCPKERAEISMLEGAVLDIRYGVSRIAYSKDFETLKVDFLSKLPEMLKMFEDRLCHKTYLNGDHVTHPDFMLYDALDVVLYMDPMCLDAFPKLVCFKKRIEAIPQIDKYLKSSKYIAWPLQGWQATFGGGDHPPKSDLIEGRKDVNVYVNPKKLTVIKAKEQLKLLEVLVGIIHQTKWSWRRTGKQGDGERLVVHGLLPGGSAMKSGQVLIGDVLVAVNDVDVTTENIERVLSCIPGPMQVKLTFENAYDVKRET
OD S/N (ratio to GST-only well) [1]: 2.72
